Measurements: PMC11946510, “Binding of small molecules at the P-stalk site of ricin A subunit trigger conformational changes that extend into the active site” (2025)
Several values for one entry are separate records, joined by “and”; a condition that tells them apart may be missing. Equal entries are not always repeated.

Key:
[1] = molecular target: ricin holotoxin (Ricinus communis, UniProt P02879)
[2] = molecular target: RTA (Ricinus communis, UniProt P02879)

CCc1cccc(C)c1-c1ccc(C(=O)O)s1
EC50 [1]: 98 µM
Ki [2]: 1800 nM and 2000 nM
